Results of unrelated studies side by side (data: NIAID ChemDB).

All rows: enzyme or target tests; agent: HIV-1; target: Reverse transcriptase; measure: IC50

Neighbouring rows are from separate reports. Two numbers with a dash give a range or band. ICn: concentration for n% inhibition. An empty or dashed field is not shown.

structure	read by	changes	strain or isolate	value
CCN1c2ncc(CCOc3ccc(NS(C)(=O)=O)c4ccccc34)cc2C(=O)N(C)c2ccc(F)nc21	nucleotide incorporation / radiometric	RT-Y188L	-	0.1–1 µM
CC(C)(C#Cc1ccc(NC(=O)CSc2nnnn2-c2ccc(C3(C)CC3)cc2Cl)c(Cl)c1)C(=O)O	PicoGreen / fluorescence	RT-K103 Y181C	-	<1 µM
Cc1nnc2c3ccccc3c(N3CCc4ccc(N)cc4C3)nn12	RT activity / fluorescence	-	KER2008	11.9 µM
CCN1c2ncc(CCOc3ccc(CC(=O)O)c4c3CCCC4)cc2C(=O)N(C)c2ccc(F)nc21	nucleotide incorporation / radiometric	-	WT	<0.1 µM
CC(C)(N)C#Cc1ccc(NC(=O)CSc2nnnn2-c2cc(C(C)(C)C)ccc2Cl)c(Cl)c1	PicoGreen / fluorescence	RT-K103 Y181C	-	<1 µM
CCN1c2ncc(CCOc3ccc(CCC(=O)O)c4ccccc34)cc2C(=O)N(C)c2ccc(F)nc21	nucleotide incorporation / radiometric	RT-K103N Y181C	-	0.1–1 µM
CCc1cc(NCc2nc3c(C)ccc(C)c3o2)c(=O)[nH]c1C	nucleotide incorporation	RT-K103N Y188C	-	3.32 µM
CCN1c2ncc(CCOc3ccc(C4CC4C(=O)O)c4ccccc34)cc2C(=O)N(C)c2ccc(F)nc21	nucleotide incorporation / radiometric	RT-V106A	-	0.1–1 µM
Cc1nnc2c3ccccc3c(N3CCc4ncccc4C3)nn12	RT activity / fluorescence	-	KER2008	1.08 µM
CCN1c2ncc(CCOc3ccc(CC(C)C(=O)O)c4ccccc34)cc2C(=O)N(C)c2ccc(C)nc21	nucleotide incorporation / radiometric	RT-K103N Y181C	-	0.1–1 µM
CNS(=O)(=O)c1ccc(NC(=O)CSc2nnnn2-c2ccc(C(C)(C)C)cc2Cl)c(Cl)c1	PicoGreen / fluorescence	RT-K103 Y181C	-	<1 µM
CCN1c2ncc(CCOc3ccc(-c4cccc(C(C)C(=O)O)c4)cc3C)cc2C(=O)N(C)c2cccnc21	nucleotide incorporation / radiometric	-	IIIB	<0.05 µM
CC(=O)NC(C(=O)Nc1ccc(NC(=O)CSc2nnnn2-c2ccc(C(C)(C)C)cc2Cl)c(Cl)c1)c1ccccc1	PicoGreen / fluorescence	RT-K103 Y181C	-	<1 µM
CCN1c2ncc(CCOc3ccc4cc(C(=O)NC(C)(C)C(=O)O)ccc4c3)cc2C(=O)N(C)c2cccnc21	nucleotide incorporation / radiometric	RT-K103N Y181C	-	0.1–1 µM
CC(C)(C#Cc1ccc(NC(=O)CSc2nnnn2-c2ccc(C3CC3)cc2Cl)c(Cl)c1)NC(=O)c1ccccc1	PicoGreen / fluorescence	RT-K103 Y181C	-	<1 µM
CC(C)Nc1cccnc1N1CCN(C(=O)c2cccc3c2NCC3)CC1	nucleotide incorporation	-	-	<100 µM
CCN1c2ncc(CCOc3ccc(CC(C)C(=O)O)c4ccccc34)cc2C(=O)Nc2c(C)ccnc21	nucleotide incorporation / radiometric	RT-V106A	-	>1 µM
FC(F)c1nnc2c3ccccc3c(N3CCc4ccccc4C3)nn12	RT activity / fluorescence	-	KER2008	0.29 µM
Cc1ccc(-c2ncsc2SCC(=O)Nc2ccc(-c3ccc(CC(=O)O)cc3)cc2Cl)c(Cl)c1	PicoGreen / fluorescence	RT-K103 Y181C	-	<1 µM
CCN1c2ncc(CCOc3ccc(CC(=O)O)c4ccccc34)cc2C(=O)Nc2c(C)cc(Cl)nc21	nucleotide incorporation / radiometric	-	WT	<0.1 µM
CC(C)(C)c1ccc(-n2nnnc2SCC(=O)Nc2ccc(NC(=O)c3ccccc3Cl)cc2Cl)c(Cl)c1	PicoGreen / fluorescence	-	WT	<1 µM
CC(C)c1nnc2c3ccccc3c(N3CCc4ccccc4C3)nn12	RT activity / fluorescence	-	IIIB	4.97 µM
CCN1c2ncc(CCOc3ccc(-c4cnc(C)c(C)c4)cc3C)cc2C(=O)N(C)c2cccnc21	nucleotide incorporation / radiometric	RT-K103N Y181C	IIIB	<0.05 µM
CC(C)(C)c1ccc(-n2nnnc2SCC(=O)Nc2ccc(OCC(=O)Nc3ccccc3C(=O)O)cc2Cl)c(Cl)c1	PicoGreen / fluorescence	RT-K103 Y181C	-	<1 µM
CCN1c2ncc(CCOc3ccc(-c4ccc(CCC(=O)O)o4)cc3)cc2C(=O)N(C)c2cccnc21	nucleotide incorporation / radiometric	-	IIIB	<0.05 µM
COC(=O)Cc1cccc(-c2ccc(NC(=O)CSc3nnnn3-c3ccc(C)cc3Cl)c(Cl)c2)c1	PicoGreen / fluorescence	RT-K103 Y181C	-	<1 µM
CCN1c2ncc(CCOc3ccc(-c4cc(C(=O)O)on4)cc3)cc2C(=O)N(C)c2cccnc21	nucleotide incorporation / radiometric	RT-K103N Y181C	IIIB	>0.1 µM
CC(C)Oc1ccc(Cl)c(-n2nnnc2SCC(=O)Nc2ccc(C#CC(C)(C)C(=O)O)cc2Cl)c1	PicoGreen / fluorescence	-	WT	<1 µM
Nc1cc2c(c(N3CCCC3)c1)CCN(c1nn3c(C4CC4)nnc3c3ccccc13)C2	RT activity / fluorescence	-	KER2008	18.1 µM
O=C(CSc1nnnn1-c1cc(C(F)(F)F)ccc1Cl)Nc1ccc(-c2ccc(OCCN3CCCCC3)cc2)cc1Cl	PicoGreen / fluorescence	-	WT	<1 µM
CC(C)Nc1cccnc1N1CCN(C(=O)c2cccc3cc[nH]c23)CC1	nucleotide incorporation	-	-	<100 µM
c1csc(-c2nnc3c4ccccc4c(N4CCc5ccccc5C4)nn23)c1	RT activity / fluorescence	-	IIIB	>100 µM
CC(C)Nc1cccnc1N1CCN(C(=O)c2cc3cc(N=CN(C)C)ccc3[nH]2)CC1	nucleotide incorporation	-	-	<100 µM
Cc1nnc2ccc(N3CCc4ccccc4C3)nn12	RT activity / fluorescence	-	KER2008	9.82 µM
CC(C)(C)c1ccc(-n2nnnc2SCC(=O)Nc2ccc(C(=O)NCCO)cc2Cl)c(Cl)c1	PicoGreen / fluorescence	RT-K103 Y181C	-	<1 µM
COc1ccc2[nH]c(C(=O)N3CCN(c4ncccc4NC(C)(C)C)CC3)cc2c1	nucleotide incorporation	-	-	<100 µM

2 of the rows above, restated:

structure | read by | changes | strain or isolate | value
CC(C)(C)c1ccc(-n2nnnc2SCC(=O)Nc2ccc(C(=O)NCCO)cc2Cl)c(Cl)c1 | PicoGreen / fluorescence | RT-K103 Y181C | - | <1 µM
COC(=O)Cc1cccc(-c2ccc(NC(=O)CSc3nnnn3-c3ccc(C)cc3Cl)c(Cl)c2)c1 | PicoGreen / fluorescence | RT-K103 Y181C | - | <1 µM